A mixed list of measured activities; the numbers were collected in NIAID ChemDB.

Shared fields: whole-cell or culture tests; species: HIV-1; cells: PBMC; read-out: inhibition

Neighbouring rows are from separate reports.

smiles,strain,mutations,read by,tested at,result
O=C(O)[C@H]1O[C@@H](Oc2cc(O)cc(/C=C/c3ccc(O)cc3)c2)[C@H](O)[C@@H](O)[C@@H]1O,IIIB,-,RT activity,300 µM,6.6%
C[S+](CC[C@H](N)C(=O)[O-])C[C@H]1O[C@@H](n2cnc3c(N)ncnc32)[C@H](O)[C@@H]1O,IIIB,-,p24,100 µg/mL,60%
CC#C[C@]1(O)CC[C@H]2[C@@H]3CCC4=CC(=O)CCC4=C3[C@@H](c3ccc(N(C)C)cc3)C[C@@]21C,89.6,-,p24 / ELISA,1 µM,60–70%
O=C(O)CCC(CCC(=O)O)(CCC(=O)O)NC(=O)CCC(CCC(=O)NC(CCC(=O)O)(CCC(=O)O)CCC(=O)O)(CCC(=O)NC(CCC(=O)O)(CCC(=O)O)CCC(=O)O)NC(=O)CCCOC(=O)C1(C(=O)OCCCC(=O)NC(CCC(=O)NC(CCC(=O)O)(CCC(=O)O)CCC(=O)O)(CCC(=O)NC(CCC(=O)O)(CCC(=O)O)CCC(=O)O)CCC(=O)NC(CCC(=O)O)(CCC(=O)O)CCC(=O)O)C2c3cc4c5c6c3-c3c(cc7c8c3C6C3c6c-5c(cc5ccc9cc(c-8c3c9c65)C7)C4)C21,xxBRU,-,cytopathic effect,1.1 µM,90%
Nc1ccn([C@@H]2O[C@H](CO)C=C2F)c(=O)n1,-,RT-M184V,RT activity,1.8 µM,90%
CN(C[C@@H](CCN1CCC2(CC1)CS(=O)c1ccccc12)c1ccc(Cl)c(Cl)c1)S(=O)(=O)c1ccc(-c2ccon2)s1,YU2,-,-,12.5 µM,<95%
N=C1Sc2ccccc2C2=NCCCN12,92UG029,-,β-galactosidase,4.67 µM,90%
Nc1nc(NC2CC2)c2ncn([C@H]3C=C[C@@H](CO)C3)c2n1,KAB Clinical isolate,-,p24,0.25 µM,37%
CO[C@H]1C[C@@H]2CC[C@@H](C)[C@@](O)(O2)C(=O)C(=O)N2CCCC[C@H]2C(=O)O[C@H]([C@H](C)C[C@@H]2CC[C@@H](O)[C@H](OC)C2)CC(=O)[C@H](C)/C=C(\C)[C@@H](O)[C@@H](OC)C(=O)[C@H](C)C[C@H](C)/C=C/C=C/C=C/1C,IIIB X4,-,p24,0.001 µM,36%
Cc1cc2ccccc2c(-c2ccc3c4c(ccnc24)CCO3)c1[C@H](OC(C)(C)C)C(=O)O,BaL,-,p24,0.035 µM,95%
CC(C)CN(C[C@@H](O)[C@H](Cc1ccccc1)NC(=O)O[C@H]1CO[C@H]2OCC[C@H]21)S(=O)(=O)c1ccc2nc(NC3CCN(C4CCCC4)CC3)sc2c1,LAI,-,p24,7 nM,90%
Cc1c2ccnc(Cl)c2cc2c3cn(C)ccc-3nc12,-,-,p24 / ELISA,0.5 µM,0%
Nc1ccn([C@@H]2C=C(F)[C@H](CO)O2)c(=O)n1,BRU-184V,RT-M184V,RT activity,82 µM,90%
C=C(C)C12OCOC1C1C3OC3(CO)C(O)C3(O)C(=O)C(C)=CC3C1(O/C=C/C=C/CCC)C(C)C2OC(=O)c1ccccc1,-,-,fluorescence,0.09 µM,90%
C[C@H]1[C@H](O)[C@@H](C)/C=C/C=C/C=C/C=C/C=C/C=C/C=C/[C@H](O[C@@H]2O[C@H](C)[C@@H](O)[C@H](N)[C@@H]2O)C[C@@H]2O[C@](O)(C[C@@H](O)C[C@@H](O)CC[C@H](O)[C@@H](O)C[C@@H](O)CC(=O)O[C@H]1C)C[C@H](O)[C@H]2C(=O)O,93BR020 CLADE F R5/X4 (SI),-,p24 / RT activity,1.6 µM,90%
N=C1Sc2ccccc2C2=NCCCN12,92RW016,-,ELISA,0.54 µM,90%
Cc1cn([C@H]2C[C@H](N=[N+]=[N-])[C@@H](CO)O2)c(=O)[nH]c1=O,Ba-L (R5-tropic),-,RT activity,0.014 µM,70%
O=C(Nc1ncc(Cl)s1)c1ccccc1O,BaL,-,p24,10 µg/mL,96.5%
CO[C@H]1C[C@@H]2CC[C@@H](C)[C@@](O)(O2)C(=O)C(=O)N2CCCC[C@H]2C(=O)O[C@H]([C@H](C)C[C@@H]2CC[C@@H](O)[C@H](OC)C2)CC(=O)[C@H](C)/C=C(\C)[C@@H](O)[C@@H](OC)C(=O)[C@H](C)C[C@H](C)/C=C/C=C/C=C/1C,ADA R5,-,p24,0.01 µM,91%
CC(=O)N1CCC(C(=O)N(CCCN2CCC(Cc3ccc(C(N)=O)cc3)CC2)c2ccc(C)c(Cl)c2)CC1,HKW Clinical isolates,-,p24,0.012 µM,90%
Cc1ccc(-c2ccc3c(c2)C=C(C(=O)Nc2ccc(C[N+](C)(C)C4CCOCC4)cc2)CCC3)cc1,CM4 CLADE C,-,p24,1 µM,99.6%
CC(=O)CCCCn1c(=O)c2c(ncn2C)n(C)c1=O,-,-,RT activity,250 µM,70%

An empty or dashed field is not shown. a–b is a range or a potency band. Inhibition is in % at the dose shown (toxicity tests: loss of growth or viability).